Anti-infective test results gathered from many reports (values: NIAID ChemDB through PubChem).

Common to all: whole-cell or culture tests; species: Cryptococcus neoformans

Two numbers with a dash give a range or band. MIC50, MIC90 and the like: level of inhibition, or share of isolates inhibited. ECn is the concentration giving n% inhibition of infection, replication or growth. Rows are shuffled and stem from different studies. Blank or dashed fields: not listed here.

compound,strain,read by,endpoint,value
COc1cc2ccnc3c2c(c1OC(=O)N1CCCC1)N(C)C=C3,,,EC50,>15 µg/mL
Clc1cnc2[nH]ccc2c1,ATCC90112,,MIC100,15.6 µg/mL
O=[N+]([O-])c1ccc(C=Nc2ccccc2O)cc1,VM-MCMMPI,,MIC99,32 µg/mL
CCCCCc1ccc(C(=O)Oc2c(OC)cc3ccnc4c3c2N(C)C=C4)cc1,,,MIC,5 µg/mL
COc1cc(O)c2c(c1)C(=O)c1c(cc3c(c1O)-c1c(cc(C)c(C(=O)NC(CO)C(=O)O)c1O)[C@H](OC1OC(C)C(O)C(OC4OCC(O)C(O)C4O)C1O)C3O)C2=O,32 isolates,,MIC90,4 µg/mL
C=C1/C=C(\C)[C@H](CC)OC(=O)[C@H](C)C(=O)C(O)(CO)C/C(C)=C/[C@@H](C)C1,MY2026,,MIC,>200 µg/mL
C[C@H]1[C@H](O)[C@@H](C)/C=C/C=C/C=C/C=C/C=C/C=C/C=C/[C@H](O[C@@H]2O[C@H](C)[C@@H](O)[C@H](N)[C@@H]2O)C[C@@H]2O[C@](O)(C[C@@H](O)C[C@@H](O)CC[C@H](O)[C@@H](O)C[C@@H](O)CC(=O)O[C@H]1C)C[C@H](O)[C@H]2C(=O)O,ATCC90112,,MIC100,0.8 µg/mL
C[C@@H](n1ccn(-c2ccc(OCC(F)(F)C(F)F)cc2)c1=O)C(O)(Cn1cncn1)c1ccc(F)cc1F,TIMM1740,,MIC,0.06 µg/mL
Oc1ccccc1N=Cc1ccc(F)cc1,ATCC 24067,broth dilution,MIC,4 µg/mL
COc1cc(O)c2c(c1)C(=O)c1c(cc3c(c1O)-c1c(cc(C)c(C(=O)N[C@H](C)C(=O)O)c1O)[C@H](O[C@@H]1O[C@H](C)[C@H](O)[C@H](O[C@@H]4OC[C@@H](O)[C@H](O)[C@H]4O)[C@H]1O)[C@H]3O)C2=O,5 isolates,,MIC,0.63–1.25 µg/mL
O=c1ccc2nccc3c4ccccc4n1c23,,,MIC,12.8 µM
C[C@@H](n1ccn(-c2ccc(C(F)(F)F)cc2)c1=O)C(O)(Cn1cncn1)c1ccc(F)cc1F,TIMM1740,,MIC,0.03 µg/mL
CCOC(=O)c1c(C)nc(NCCCNc2ccnc3cc(Cl)ccc23)nc1-c1ccccc1,WP,,MIC99,8 µg/mL
CC[C@@]1(O)C[C@H](O[C@H]2C[C@H](N(C)C)[C@H](O[C@H]3C[C@H](O)[C@H](O[C@H]4CCC(=O)[C@H](C)O4)[C@H](C)O3)[C@H](C)O2)c2c(cc3c(c2O)C(=O)c2c(O)cccc2C3=O)[C@H]1C(=O)OC,Serotype C,,MIC,0.8 µg/mL
C[C@@H](N1CCN(c2ccc(OCC(F)(F)C(F)F)cc2)C1=O)C(O)(Cn1cncn1)c1ccccc1F,TIMM1855,,MIC,0.03 µg/mL
Clc1ccc(C(Cc2ccccc2)c2c(Cl)nc(N3CCNCC3)nc2Cl)cc1,,,MIC,150 µg/mL
CN(c1ccc(Cl)cc1)c1cc2ccccc2[n+](C)c1.[I-],ATCC 90113,resazurin,EC50,>20 µg/mL
C=C1CO[C@H]2[C@@H](C)OC(OC[C@@]34C[C@H]5[C@H](C)CC[C@@H]5[C@@]5(C=O)C[C@@H]3C=C(C(C)C)[C@@]45C(=O)O)C[C@@H]12,137 strains (serotype A),,MIC90,1 µg/mL
Oc1ccccc1C=Nc1ccccc1O,27JF,broth dilution,MIC,11.3 µg/mL
C[n+]1c2ccccc2cc2[nH]c3c(Br)cccc3c21.[I-],ATCC 90113,resazurin,EC50,>20 µg/mL
COc1cc2ccnc3c2c(c1OC(=O)c1ccccc1C)N(C)C=C3,,,MIC,20 µg/mL
CC(C(O)(Cn1cncn1)c1ccc(F)cc1F)S(C)(=O)=O,9 strains,,MIC50,1 µg/mL
COc1cc2ccnc3c2c(c1OC(=O)c1cccc(C)c1)N(C)C=C3,,,EC50,15 µg/mL
Cc1ccc(-c2c3c(N)c4c(nc3nc3c2c(C)nn3-c2ccccc2)CCCCC4)cc1,ATCC 32264,broth dilution / absorbance,MIC100,125 µg/mL
COc1ccccc1-c1cc2cc(C)cnc2[nH]1,ATCC90112,,MIC100,3.9 µg/mL
C[C@@H](n1ccn(-c2ccc(F)cc2)c1=O)C(O)(Cn1cncn1)c1ccc(F)cc1F,TIMM1740,,MIC,0.25 µg/mL
Oc1ccccc1N=Cc1ccccc1,VM-MCMMPI,broth dilution,MIC,5.7 µg/mL
Cc1nn(-c2ccccc2)c2nc3nc4c(c(N)c3c(-c3ccc(Cl)cc3)c12)CCCCC4,ATCC 32264,broth dilution / absorbance,MIC50,125 µg/mL
C[C@@H](n1ccn(-c2ccc(OC(F)(F)C(F)F)cc2)c1=O)C(O)(Cn1cncn1)c1ccc(F)cc1F,TIMM1855,,MIC,0.03 µg/mL
Oc1ccccc1N=Cc1ccc2c(c1)OCO2,28JF,,MIC99,11.3 µg/mL
Cc1ccc(-c2c3c(N)c4c(nc3nc3c2c(C)nn3-c2ccccc2)CCC4)cc1,ATCC 32264,broth dilution / absorbance,MIC50,7.8 µg/mL
CCc1ccc(C(=O)Oc2c(OC)cc3ccnc4c3c2N(C)C=C4)cc1,,,MIC,10 µg/mL
CN(c1cc2ccccc2[n+](C)c1)c1ccccc1Cl.[I-],ATCC 90113,resazurin,EC50,>20 µg/mL
FC(F)(F)c1cc(-c2cc3cc(Br)cnc3[nH]2)cc(C(F)(F)F)c1,ATCC90112,,MIC100,15.6 µg/mL
COc1ccc(-c2c3c(N)c4c(nc3nc3c2c(C)nn3-c2ccccc2)CCC4)cc1,ATCC 32264,broth dilution / absorbance,MIC100,>250 µg/mL
CCOC(=O)c1c(C)nc(NCCCCNc2ccnc3cc(Cl)ccc23)nc1-c1ccccc1,VM-MCMMPI,,MIC99,8 µg/mL
CCCCc1ccc(C(=O)Oc2c(OC)cc3ccnc4c3c2N(C)C=C4)cc1,,,MIC,2.5 µg/mL
CC[C@@H]1OC(=O)[C@H](C)C(=O)C(O)(CO)C/C(SC)=C/[C@@H](C)Cc2cccc1c2,ATCC90112,,MIC,>64 µg/mL
COc1cc2ccnc3c2c(c1OC(=O)c1cccc(F)c1F)N(C)C=C3,,,EC50,>15 µg/mL
COc1ccccc1-c1cc2cc(Br)cnc2[nH]1,ATCC90112,,MIC100,15.6 µg/mL

Repeating the first 4 entries:

compound | strain | read by | endpoint | value
COc1cc2ccnc3c2c(c1OC(=O)N1CCCC1)N(C)C=C3 |  |  | EC50 | >15 µg/mL
Clc1cnc2[nH]ccc2c1 | ATCC90112 |  | MIC100 | 15.6 µg/mL
O=[N+]([O-])c1ccc(C=Nc2ccccc2O)cc1 | VM-MCMMPI |  | MIC99 | 32 µg/mL
CCCCCc1ccc(C(=O)Oc2c(OC)cc3ccnc4c3c2N(C)C=C4)cc1 |  |  | MIC | 5 µg/mL